Compound potency records, mixed from different reports. Data source: NIAID ChemDB in PubChem.

All rows: cytotoxicity tests; cells: VERO; endpoint: CC50

Rows are shuffled and stem from different studies. CCn: concentration that lowers growth or viability of the cells by n%. An empty or dashed field is not shown.

smiles | method | value
O=C(O)c1c2n(c3cc(N4CCN(C(=O)c5ccco5)CC4)c([N+](=O)[O-])cc3c1=O)CS2 | MTT | 137 µM
Cc1ccc(N2C(=O)CCC2(CN)c2ccccc2)cc1 | absorbance | >100 µM
N#Cc1c(SCCCSc2nsc(-c3ccccc3)c2C#N)nsc1-c1ccccc1 | MTT | >4.76 µg/mL
O=C(OC1COC(=O)c2cc(O)c(O)c(O)c2-c2c(cc(O)c(O)c2O)C(=O)OC1C1OC(=O)c2cc(O)c(O)c(O)c2-c2c(O)c(O)c(O)c3c2C(=O)OC1C3O)c1cc(O)c(O)c(O)c1 |  | 89 µM
C/C(=N\NC(=O)c1ccncc1)c1cccc(CN2CCN(c3ccc(F)cc3)CC2)c1O |  | >13.97 µM
O=C(O)c1c2n(c3cc(N4CCC5(CC4)OCCO5)c([N+](=O)[O-])cc3c1=O)CS2 | MTT | 149 µM
C[C@H]([C@@H]1CC[C@H](C)[C@@H](O)O1)[C@H]1CC[C@@]2(C)C3=C(CC[C@]12C)[C@@]1(C)CC[C@@H](O)C(C)(C)C1CC3 |  | >100 µg/mL
N#Cc1c(SSc2nsc(-c3ccccc3)c2C#N)nsc1-c1ccccc1 | MTT | 8.69 µg/mL
CC(=O)OC[C@H]1O[C@@H]2Oc3c(c(=O)n(C)c(=O)n3C)S[C@@H]2[C@@H](OC(C)=O)[C@H]1OC(C)=O |  | 61.7 µM
Cc1ccc(N2C(=O)CCC2(CN)c2ccc(OCc3ccccc3)cc2)cc1 | absorbance | 12.3 µM
C[C@H]([C@@H]1CC[C@H](C)C(=O)O1)[C@H]1CC[C@@]2(C)C3=C(CC[C@]12C)[C@@]1(C)CCC(=O)C(C)(C)C1CC3 |  | >100 µg/mL
O=[N+]([O-])c1cc2n(n1)CC(OCc1ccc(OCc3ccccc3)cc1)CO2 |  | 82 µM
CC(Sc1ncnc2c1cnn2CCCCO)C(N)=O |  | >400 µg/mL
NC1CCCON2CCc3c([nH]c4ccccc34)[C@H]12 |  | >400 µg/mL
O=[N+]([O-])c1cn2c(n1)S(=O)CC(OCc1ccc(OCc3ccccc3)cc1)C2 |  | 63 µM
CC(C)(C)NC(=O)C1c2ccccc2CCN1c1cc2c(cc1[N+](=O)[O-])c(=O)c(C(=O)O)c1n2CS1 | MTT | 61.44 µM
Cn1c2c(c(=O)n(C)c1=O)S[C@@H]1[C@H](O2)O[C@H](COc2ccccc2)[C@@H](OCc2ccccc2)[C@@H]1OCc1ccccc1 |  | >100 µM
C[C@H]([C@@H]1CC[C@H](C)[C@@H](O)O1)[C@H]1CC[C@@]2(C)C3=C(CC[C@]12C)[C@@]1(C)CC[C@H](O)C(C)(C)C1CC3 |  | >100 µg/mL
CC1CN(c2cc3c(cc2[N+](=O)[O-])c(=O)c(C(=O)O)c2n3CS2)CC(C)O1 | MTT | 79.84 µM
CN1CC(OCc2ccc(OC(F)(F)F)cc2)Cn2nc([N+](=O)[O-])cc21 |  | >128 µM
Cc1cc(C)cc(N2C(=O)CCC2(CN)c2c(Cl)cccc2Cl)c1 | absorbance | >100 µM
O=C(O)c1cn2c(n1)CN(c1cc3c(cc1F)c(=O)c(C(=O)O)c1n3CS1)CC2 | MTT | >150.1 µM
CCC(Sc1ncnc2c1cnn2COCC(O)CO)C(N)=O |  | >400 µg/mL
COc1ccc(C)cc1NCc1cnc2nc(N)nc(N)c2c1C |  | 471 µg/mL
CCn1cc(C(=O)O)c(=O)c2cc(F)c(N3CCN(Cc4cccc(/C(C)=N/NC(=O)c5ccncc5)c4O)C(C)C3)c(F)c21 |  | >10.1 µM
COc1ccc2[nH]c3c(c2c1)CCN1OCSCC(N)[C@@H]31 |  | ≥1 µg/mL
O=C(O)c1c2n(c3cc(N4CCN(C(=O)c5ccco5)CC4)c(F)cc3c1=O)CS2 | MTT | >146 µM
C/C(=N\NC(=O)c1ccncc1)c1cccc(CN(Cc2ccccc2)Cc2ccccc2)c1O |  | >13.46 µM
O=[N+]([O-])c1cn2c(n1)SCC(OCc1ccc(OCc3ccccc3)cc1)C2 |  | >128 µM
CC(=O)O[C@H]1[C@@H](OC(C)=O)[C@@H](CO[Si](c2ccccc2)(c2ccccc2)C(C)(C)C)O[C@@H](O[C@H]2[C@H](OC(C)=O)[C@H]3Sc4c(n(C)c(=O)n(C)c4=O)O[C@H]3O[C@@H]2CO[Si](c2ccccc2)(c2ccccc2)C(C)(C)C)[C@@H]1OC(C)=O |  | >100 µM
CCN(CC)Cc1cccc(/C(C)=N/NC(=O)c2ccncc2)c1O |  | >18.35 µM
COc1ccc(C)c(NCc2cnc3nc(N)nc(N)c3c2C)c1 |  | 461 µg/mL
NC1CSCCN2CCc3c([nH]c4ccccc34)[C@H]12 |  | ≥100 µg/mL
CCCCN(CCCC)Cc1cccc(/C(C)=N/NC(=O)c2ccncc2)c1O |  | >15.76 µM
CCOS(=O)c1nsc(-c2ccc(OCc3ccccc3)cc2)c1C#N | MTT | 3.96 µg/mL
C/C(=N\NC(=O)c1ccncc1)c1cccc(CN2CCN(c3ccccn3)CC2)c1O |  | >14.52 µM
CCC(Sc1ncnc2c1cnn2COCCO)C(N)=O |  | >400 µg/mL
CSc1nsc(-c2ccc(OCc3ccccc3)cc2)c1C#N | MTT | >16.92 µg/mL
COc1cc(NCc2cnc3nc(N)nc(N)c3c2C)cc(OC)c1 |  | 40.6 µg/mL
CCOC(=O)Sc1nsc(-c2ccccc2)c1C#N | MTT | 5.8 µg/mL
C/C(=N\NC(=O)c1ccncc1)c1cccc(CN2CCN(Cc3ccccc3)CC2)c1O |  | >14.09 µM